Reference: US10414808B2 (priority 2012, dated 2019)

By UniProt entry, the sequences of proteins in these tests, tags left out.
UniProt Q15858, whole entry W1161R, looked up: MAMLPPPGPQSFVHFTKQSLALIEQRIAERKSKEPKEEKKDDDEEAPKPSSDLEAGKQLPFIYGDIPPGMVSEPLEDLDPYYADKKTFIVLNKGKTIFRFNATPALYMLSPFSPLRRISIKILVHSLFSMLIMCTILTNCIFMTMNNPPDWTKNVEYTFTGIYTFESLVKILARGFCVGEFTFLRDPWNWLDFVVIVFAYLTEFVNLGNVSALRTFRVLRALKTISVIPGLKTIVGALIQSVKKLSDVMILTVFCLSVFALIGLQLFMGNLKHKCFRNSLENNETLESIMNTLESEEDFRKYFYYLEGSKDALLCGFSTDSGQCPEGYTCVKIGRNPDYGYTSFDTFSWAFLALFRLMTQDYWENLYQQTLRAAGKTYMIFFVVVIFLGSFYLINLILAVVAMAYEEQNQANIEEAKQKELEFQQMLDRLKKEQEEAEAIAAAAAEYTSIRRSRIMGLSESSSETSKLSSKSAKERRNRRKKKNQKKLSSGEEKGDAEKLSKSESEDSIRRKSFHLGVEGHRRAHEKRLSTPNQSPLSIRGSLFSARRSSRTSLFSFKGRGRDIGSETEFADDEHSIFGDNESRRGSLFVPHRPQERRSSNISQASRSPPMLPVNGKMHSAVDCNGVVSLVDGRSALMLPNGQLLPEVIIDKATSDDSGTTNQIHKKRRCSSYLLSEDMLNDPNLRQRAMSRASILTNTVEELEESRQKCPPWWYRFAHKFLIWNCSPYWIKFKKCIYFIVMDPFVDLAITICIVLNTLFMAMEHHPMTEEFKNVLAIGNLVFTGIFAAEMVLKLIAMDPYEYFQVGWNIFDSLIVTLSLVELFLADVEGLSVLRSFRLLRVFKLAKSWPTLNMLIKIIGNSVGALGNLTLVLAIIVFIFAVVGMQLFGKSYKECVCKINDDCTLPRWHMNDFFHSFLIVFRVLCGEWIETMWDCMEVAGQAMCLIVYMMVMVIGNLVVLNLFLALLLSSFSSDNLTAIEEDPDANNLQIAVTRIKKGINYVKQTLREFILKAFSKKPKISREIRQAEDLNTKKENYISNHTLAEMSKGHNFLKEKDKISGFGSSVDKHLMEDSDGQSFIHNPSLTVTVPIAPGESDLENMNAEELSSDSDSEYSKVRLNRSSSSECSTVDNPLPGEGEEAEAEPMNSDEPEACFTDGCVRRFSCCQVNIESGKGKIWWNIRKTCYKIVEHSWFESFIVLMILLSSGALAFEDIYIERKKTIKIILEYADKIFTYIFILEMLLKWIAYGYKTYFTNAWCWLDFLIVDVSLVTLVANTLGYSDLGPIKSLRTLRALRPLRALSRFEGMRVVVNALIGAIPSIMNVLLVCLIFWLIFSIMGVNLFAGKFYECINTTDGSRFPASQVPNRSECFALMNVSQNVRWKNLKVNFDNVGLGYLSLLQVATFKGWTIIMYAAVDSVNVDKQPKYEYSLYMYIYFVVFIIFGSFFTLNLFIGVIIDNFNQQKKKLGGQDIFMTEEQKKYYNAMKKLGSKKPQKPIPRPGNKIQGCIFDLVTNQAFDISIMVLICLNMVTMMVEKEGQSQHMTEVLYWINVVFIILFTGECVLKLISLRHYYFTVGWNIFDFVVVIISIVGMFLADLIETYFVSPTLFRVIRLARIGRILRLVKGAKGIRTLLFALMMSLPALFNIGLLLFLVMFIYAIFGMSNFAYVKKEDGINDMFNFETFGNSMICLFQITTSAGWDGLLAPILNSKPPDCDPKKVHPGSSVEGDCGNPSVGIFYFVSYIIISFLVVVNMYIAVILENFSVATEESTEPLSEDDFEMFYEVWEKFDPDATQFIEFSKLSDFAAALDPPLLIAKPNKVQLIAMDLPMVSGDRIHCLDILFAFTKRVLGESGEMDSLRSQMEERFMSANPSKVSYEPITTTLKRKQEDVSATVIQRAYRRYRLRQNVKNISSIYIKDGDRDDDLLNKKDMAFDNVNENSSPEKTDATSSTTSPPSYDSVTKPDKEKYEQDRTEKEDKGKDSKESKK
UniProt Q99250, whole entry, looked up: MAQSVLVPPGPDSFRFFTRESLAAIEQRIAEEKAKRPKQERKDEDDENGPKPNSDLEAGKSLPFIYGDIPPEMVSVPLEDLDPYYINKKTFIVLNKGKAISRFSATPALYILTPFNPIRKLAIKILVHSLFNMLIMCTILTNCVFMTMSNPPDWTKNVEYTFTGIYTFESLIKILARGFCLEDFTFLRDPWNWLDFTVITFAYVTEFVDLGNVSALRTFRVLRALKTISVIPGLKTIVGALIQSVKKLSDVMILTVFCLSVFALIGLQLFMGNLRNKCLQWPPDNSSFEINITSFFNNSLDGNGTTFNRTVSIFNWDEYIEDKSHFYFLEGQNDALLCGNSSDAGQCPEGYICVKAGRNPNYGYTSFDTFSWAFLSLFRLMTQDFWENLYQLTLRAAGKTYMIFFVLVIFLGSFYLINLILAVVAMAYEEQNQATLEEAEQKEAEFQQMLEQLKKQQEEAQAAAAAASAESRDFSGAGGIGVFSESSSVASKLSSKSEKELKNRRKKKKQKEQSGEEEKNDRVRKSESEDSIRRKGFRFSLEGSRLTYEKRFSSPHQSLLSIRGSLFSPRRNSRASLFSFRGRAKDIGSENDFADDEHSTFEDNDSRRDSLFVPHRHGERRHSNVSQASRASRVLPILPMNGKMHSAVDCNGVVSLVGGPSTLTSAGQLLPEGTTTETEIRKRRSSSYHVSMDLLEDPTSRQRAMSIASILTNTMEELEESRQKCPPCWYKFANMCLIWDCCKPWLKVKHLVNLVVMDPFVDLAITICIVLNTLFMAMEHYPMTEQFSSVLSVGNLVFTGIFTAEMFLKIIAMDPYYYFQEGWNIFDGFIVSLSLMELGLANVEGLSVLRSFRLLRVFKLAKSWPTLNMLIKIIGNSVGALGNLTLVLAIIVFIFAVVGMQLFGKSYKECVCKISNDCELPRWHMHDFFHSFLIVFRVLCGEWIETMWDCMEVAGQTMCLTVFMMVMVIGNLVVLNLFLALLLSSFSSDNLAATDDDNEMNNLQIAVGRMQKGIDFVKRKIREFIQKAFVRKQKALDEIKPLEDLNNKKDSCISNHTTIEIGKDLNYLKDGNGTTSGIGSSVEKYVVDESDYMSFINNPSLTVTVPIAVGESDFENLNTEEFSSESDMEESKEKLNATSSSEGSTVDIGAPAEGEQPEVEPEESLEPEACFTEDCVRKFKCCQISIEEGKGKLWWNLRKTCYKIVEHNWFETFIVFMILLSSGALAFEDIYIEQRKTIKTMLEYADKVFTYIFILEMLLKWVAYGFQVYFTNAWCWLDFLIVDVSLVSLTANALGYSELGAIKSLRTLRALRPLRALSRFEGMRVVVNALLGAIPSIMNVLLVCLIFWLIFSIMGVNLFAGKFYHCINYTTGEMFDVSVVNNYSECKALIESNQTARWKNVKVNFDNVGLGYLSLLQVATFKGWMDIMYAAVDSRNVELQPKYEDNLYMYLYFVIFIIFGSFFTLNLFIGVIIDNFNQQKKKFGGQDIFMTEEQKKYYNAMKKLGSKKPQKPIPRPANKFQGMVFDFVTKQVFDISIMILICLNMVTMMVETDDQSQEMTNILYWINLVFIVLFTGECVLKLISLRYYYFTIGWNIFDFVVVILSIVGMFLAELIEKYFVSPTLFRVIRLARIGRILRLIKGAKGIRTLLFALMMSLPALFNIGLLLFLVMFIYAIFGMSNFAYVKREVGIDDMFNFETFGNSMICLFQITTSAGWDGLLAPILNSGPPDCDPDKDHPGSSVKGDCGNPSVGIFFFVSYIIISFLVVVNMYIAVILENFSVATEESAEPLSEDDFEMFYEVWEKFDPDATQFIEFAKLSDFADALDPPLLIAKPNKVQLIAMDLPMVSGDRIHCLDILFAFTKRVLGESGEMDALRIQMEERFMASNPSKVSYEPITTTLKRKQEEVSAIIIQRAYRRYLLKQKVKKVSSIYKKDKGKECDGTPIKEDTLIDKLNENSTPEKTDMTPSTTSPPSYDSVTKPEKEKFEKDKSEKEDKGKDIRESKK

What was measured:
[1] = target: Nav1.7 (Homo sapiens, UniProt Q15858, W1161R); assay: IC50 (Nav1.7) µM; settings: read-out: IC50 (Nav1.7) µM
[2] = target: Nav1.2 (Homo sapiens, UniProt Q99250); assay: IC50 (Nav1.2) µM; settings: read-out: IC50 (Nav1.2) µM

With `CC[C@H](C)[C@H](NC(=O)[C@H](CO)NC(=O)[C@H](Cc1c[nH]c2ccccc12)NC(=O)[C@H](CCCCN)NC(=O)[C@@H]1CSSC[C@@H]2NC(=O)[C@H](CCC(N)=O)NC(=O)[C@H](CC(=O)O)NC(=O)[C@H](CC(N)=O)NC(=O)[C@H](CO)NC(=O)[C@@H]3CCCN3C(=O)[C@H](CC(N)=O)NC(=O)[C@@H]3CSSC[C@H](NC(=O)[C@H](C(C)C)NC(=O)[C@H](CC(C)C)NC(=O)[C@H](CCCCN)NC(=O)[C@H](CO)NC(=O)[C@H](CO)NC(=O)[C@H](CCCCN)NC(=O)[C@H](CSSC[C@H](NC(=O)[C@H](CCC(=O)O)NC(=O)[C@@H]4CCCN4C(=O)CN)C(=O)N[C@@H](CC(C)C)C(=O)N[C@@H](CCCNC(=N)N)C(=O)N[C@@H]([C@@H](C)CC)C(=O)N[C@@H](Cc4ccccc4)C(=O)N[C@@H](CCCCN)C(=O)N[C@@H](C)C(=O)N3)NC2=O)C(=O)N[C@@H](CO)C(=O)N[C@@H](CCCNC(=N)N)C(=O)N[C@@H](CCCCN)C(=O)N[C@@H]([C@@H](C)O)C(=O)N[C@@H](CCCNC(=N)N)C(=O)N[C@@H](Cc2c[nH]c3ccccc23)C(=O)N1)C(=O)NCC(=O)N[C@@H](CCCCN)C(=O)O` as the molecule, how does the IC50 [1] read?
Its IC50 is 0.02 µM.

And the IC50 [2]?
The IC50 was 0.02 µM.

For `CC[C@H](C)[C@@H]1NC(=O)[C@H](CCCNC(=N)N)NC(=O)[C@H](CC(C)C)NC(=O)[C@@H](NC(=O)[C@H](CC(N)=O)NC(=O)[C@@H]2CCCN2C(=O)CN)CSSC[C@@H]2NC(=O)[C@@H]3CSSC[C@@H](C(=O)N[C@@H](CCCCN)C(=O)N[C@@H](Cc4ccc(O)cc4)C(=O)N[C@@H](CCC(N)=O)C(=O)N[C@H](C(=O)N[C@H](C(=O)N[C@@H](CCCCN)C(=O)O)[C@@H](C)CC)[C@@H](C)CC)NC(=O)[C@H](Cc4c[nH]c5ccccc45)NC(=O)[C@H](CCCNC(=N)N)NC(=O)[C@H]([C@@H](C)O)NC(=O)[C@H](CCCCN)NC(=O)[C@H](CCCNC(=N)N)NC(=O)[C@H](CO)NC(=O)[C@H](CSSC[C@H](NC(=O)[C@H](C)NC(=O)[C@H](CCCCN)NC(=O)[C@H](Cc4ccccc4)NC1=O)C(=O)N[C@@H](CC(N)=O)C(=O)N1CCC[C@H]1C(=O)N[C@@H](CO)C(=O)N[C@@H](CC(N)=O)C(=O)N[C@@H](CC(=O)O)C(=O)N[C@@H](CCC(N)=O)C(=O)N3)NC(=O)[C@H](C(C)C)NC(=O)[C@H](CC(C)C)NC(=O)[C@H](CCCCN)NC(=O)[C@H](CO)NC(=O)[C@H](CO)NC(=O)[C@H](CCCCN)NC2=O`, which IC50 [1] is on record?
Its IC50 is 0.02 µM.

What about the IC50 [2] of the same molecule?
Its IC50 is 0.15 µM.

With `CC[C@H](C)[C@H](NC(=O)[C@H](CCC(N)=O)NC(=O)[C@H](Cc1ccc(O)cc1)NC(=O)[C@H](CCCCN)NC(=O)[C@@H]1CSSC[C@@H]2NC(=O)[C@H](CCC(N)=O)NC(=O)[C@H](CC(=O)O)NC(=O)[C@H](CC(N)=O)NC(=O)[C@H](CO)NC(=O)[C@@H]3CCCN3C(=O)[C@H](CC(N)=O)NC(=O)[C@@H]3CSSC[C@H](NC(=O)[C@H](C(C)C)NC(=O)[C@H](CC(C)C)NC(=O)[C@H](CCCCN)NC(=O)[C@H](CO)NC(=O)[C@H](CO)NC(=O)[C@H](CCCCN)NC(=O)[C@H](CSSC[C@H](NC(=O)[C@H](CCC(=O)O)NC(=O)[C@@H]4CCCN4C(=O)CN)C(=O)N[C@@H](CC(C)C)C(=O)N[C@@H](CCC(=O)O)C(=O)N[C@@H]([C@@H](C)CC)C(=O)N[C@@H](Cc4ccccc4)C(=O)N[C@@H](CCCCN)C(=O)N[C@@H](C)C(=O)N3)NC2=O)C(=O)N[C@@H](CO)C(=O)N[C@@H](CCCNC(=N)N)C(=O)N[C@@H](CCCCN)C(=O)N[C@@H]([C@@H](C)O)C(=O)N[C@@H](CC(N)=O)C(=O)N[C@@H](Cc2c[nH]c3ccccc23)C(=O)N1)C(=O)NCC(=O)N[C@@H](CCCCN)C(=O)O` as the molecule, how does the IC50 [1] read?
The IC50 was 0.15 µM.

And the IC50 [2]?
The IC50 was greater than 2.59 µM.

Which IC50 [1] does the source give for `CC[C@H](C)[C@H](NC(=O)[C@H](CCC(N)=O)NC(=O)[C@H](Cc1ccc(O)cc1)NC(=O)[C@H](CCCCN)NC(=O)[C@@H]1CSSC[C@@H]2NC(=O)[C@H](CCC(N)=O)NC(=O)[C@H](CC(=O)O)NC(=O)[C@H](CC(N)=O)NC(=O)[C@H](CO)NC(=O)[C@@H]3CCCN3C(=O)[C@H](CC(N)=O)NC(=O)[C@@H]3CSSC[C@H](NC(=O)[C@H](C(C)C)NC(=O)[C@H](CC(C)C)NC(=O)[C@H](CCCCN)NC(=O)[C@H](CO)NC(=O)[C@H](CO)NC(=O)[C@H](CCCCN)NC(=O)[C@H](CSSC[C@H](NC(=O)[C@H](CCC(=O)O)NC(=O)[C@@H]4CCCN4C(=O)CN)C(=O)N[C@@H](CC(C)C)C(=O)N[C@@H](CCC(N)=O)C(=O)N[C@@H]([C@@H](C)CC)C(=O)N[C@@H](Cc4ccccc4)C(=O)N[C@@H](CCCCN)C(=O)N[C@@H](C)C(=O)N3)NC2=O)C(=O)N[C@@H](CO)C(=O)N[C@@H](CCCNC(=N)N)C(=O)N[C@@H](CCCCN)C(=O)N[C@@H]([C@@H](C)O)C(=O)N[C@@H](CCCNC(=N)N)C(=O)N[C@@H](Cc2c[nH]c3ccccc23)C(=O)N1)C(=O)NCC(=O)N[C@@H](CCCCN)C(=O)O` here?
The IC50 was 0.02 µM.

What about the IC50 [2] of the same molecule?
The IC50 was 0.02 µM.

For `CC[C@H](C)[C@H](NC(=O)[C@H](CCC(N)=O)NC(=O)[C@H](Cc1ccc(O)cc1)NC(=O)[C@H](CCCCN)NC(=O)[C@@H]1CSSC[C@@H]2NC(=O)[C@H](CCC(N)=O)NC(=O)[C@H](CC(=O)O)NC(=O)[C@H](CC(N)=O)NC(=O)[C@H](CO)NC(=O)[C@@H]3CCCN3C(=O)[C@H](CC(N)=O)NC(=O)[C@@H]3CSSC[C@H](NC(=O)[C@H](C(C)C)NC(=O)[C@H](CC(C)C)NC(=O)[C@H](CCCCN)NC(=O)[C@H](CO)NC(=O)[C@H](CO)NC(=O)[C@H](CCCCN)NC(=O)[C@H](CSSC[C@H](NC(=O)[C@H](CC(N)=O)NC(=O)[C@@H]4CCCN4C(=O)CN)C(=O)N[C@@H](CC(C)C)C(=O)N[C@@H](CCCNC(=N)N)C(=O)N[C@@H]([C@@H](C)CC)C(=O)N[C@@H](Cc4ccccc4)C(=O)N[C@@H](CCCCN)C(=O)N[C@@H](C)C(=O)N3)NC2=O)C(=O)N[C@@H](CO)C(=O)N[C@@H](CCCNC(=N)N)C(=O)N[C@@H](CCCCN)C(=O)N[C@@H]([C@@H](C)O)C(=O)N[C@@H](CCCNC(=N)N)C(=O)N[C@@H](Cc2c[nH]c3ccccc23)C(=O)N1)C(=O)NCC(=O)N[C@@H](CCCCN)C(=O)O`, which IC50 [1] is on record?
The IC50 was 0.03 µM.

And the IC50 [2]?
Its IC50 is 0.03 µM.

What does the source list for `CC[C@H](C)[C@@H]1NC(=O)[C@H](CCC(=O)O)NC(=O)[C@H](CC(C)C)NC(=O)[C@@H](NC(=O)[C@H](CCC(=O)O)NC(=O)[C@@H]2CCCN2C(=O)CN)CSSC[C@@H]2NC(=O)[C@@H]3CSSC[C@@H](C(=O)N[C@@H](CCCCN)C(=O)N[C@@H](Cc4ccc(O)cc4)C(=O)N[C@@H](CCC(N)=O)C(=O)N[C@H](C(=O)N[C@H](C(=O)N[C@@H](CCCCN)C(=O)O)[C@@H](C)CC)[C@@H](C)CC)NC(=O)[C@H](Cc4c[nH]c5ccccc45)NC(=O)[C@H](CCCNC(=N)N)NC(=O)[C@H]([C@@H](C)O)NC(=O)[C@H](CCCCN)NC(=O)[C@H](CCCNC(=N)N)NC(=O)[C@H](CO)NC(=O)[C@H](CSSC[C@H](NC(=O)[C@H](C)NC(=O)[C@H](CCCCN)NC(=O)[C@H](Cc4ccccc4)NC1=O)C(=O)N[C@@H](CC(N)=O)C(=O)N1CCC[C@H]1C(=O)N[C@@H](CO)C(=O)N[C@@H](CC(N)=O)C(=O)N[C@@H](CC(=O)O)C(=O)N[C@@H](CCC(N)=O)C(=O)N3)NC(=O)[C@H](C(C)C)NC(=O)[C@H](CC(C)C)NC(=O)[C@H](CCCCN)NC(=O)[C@H](CO)NC(=O)[C@H](CO)NC(=O)[C@H](CCCCN)NC2=O`?
IC50 [1]: 0.06 µM; IC50 [2]: 1.42 µM

Which results are given for `CC[C@H](C)[C@H](NC(=O)[C@H](CCC(N)=O)NC(=O)[C@H](Cc1ccc(O)cc1)NC(=O)[C@H](CCCCN)NC(=O)[C@@H]1CSSC[C@@H]2NC(=O)[C@H](CCC(N)=O)NC(=O)[C@H](CC(=O)O)NC(=O)[C@H](CC(N)=O)NC(=O)[C@H](CO)NC(=O)[C@@H]3CCCN3C(=O)[C@H](CC(N)=O)NC(=O)[C@@H]3CSSC[C@H](NC(=O)[C@H](C)NC(=O)[C@H](CC(C)C)NC(=O)[C@H](CCCCN)NC(=O)[C@H](CO)NC(=O)[C@H](CO)NC(=O)[C@H](CCCCN)NC(=O)[C@H](CSSC[C@H](NC(=O)[C@H](CCC(=O)O)NC(=O)[C@@H]4CCCN4C(=O)CN)C(=O)N[C@@H](CC(C)C)C(=O)N[C@@H](CCC(=O)O)C(=O)N[C@@H]([C@@H](C)CC)C(=O)N[C@@H](Cc4ccccc4)C(=O)N[C@@H](CCCCN)C(=O)N[C@@H](C)C(=O)N3)NC2=O)C(=O)N[C@@H](CO)C(=O)N[C@@H](CCCNC(=N)N)C(=O)N[C@@H](CCCCN)C(=O)N[C@@H]([C@@H](C)O)C(=O)N[C@@H](CCCNC(=N)N)C(=O)N[C@@H](Cc2c[nH]c3ccccc23)C(=O)N1)C(=O)NCC(=O)N[C@@H](CCCCN)C(=O)O`?
IC50 [1]: 0.11 µM; IC50 [2]: > 1.51 µM

`CC[C@H](C)[C@H](NC(=O)[C@H](CCC(N)=O)NC(=O)[C@H](Cc1ccc(O)cc1)NC(=O)[C@H](CCCCN)NC(=O)[C@@H]1CSSC[C@@H]2NC(=O)[C@H](CCC(N)=O)NC(=O)[C@H](CC(=O)O)NC(=O)[C@H](CC(N)=O)NC(=O)[C@H](CO)NC(=O)[C@@H]3CCCN3C(=O)[C@H](CC(N)=O)NC(=O)[C@@H]3CSSC[C@H](NC(=O)[C@H](C(C)C)NC(=O)[C@H](CC(C)C)NC(=O)[C@H](CCCNC(=N)N)NC(=O)[C@H](CO)NC(=O)[C@H](CO)NC(=O)[C@H](CCCCN)NC(=O)[C@H](CSSC[C@H](NC(=O)[C@H](CCC(=O)O)NC(=O)[C@@H]4CCCN4C(=O)CN)C(=O)N[C@@H](CC(C)C)C(=O)N[C@@H](CCC(=O)O)C(=O)N[C@@H]([C@@H](C)CC)C(=O)N[C@@H](Cc4ccccc4)C(=O)N[C@@H](CCCCN)C(=O)N[C@@H](C)C(=O)N3)NC2=O)C(=O)N[C@@H](CO)C(=O)N[C@@H](CCCNC(=N)N)C(=O)N[C@@H](CCCCN)C(=O)N[C@@H]([C@@H](C)O)C(=O)N[C@@H](CCCNC(=N)N)C(=O)N[C@@H](Cc2c[nH]c3ccccc23)C(=O)N1)C(=O)NCC(=O)N[C@@H](CCCCN)C(=O)O` was tested. Which IC50 [1] did it give?
The IC50 was 0.02 µM.

And the IC50 [2]?
Its IC50 is 0.04 µM.
